Results reported in US20160213003A1, “APPLICATION OF POLYOXOMETALATE IN PREPARATION OF DISINFECTANT FOR STERILIZING AND REMOVING FORMALDEHYDE” (NINGBO YUCHEN ENVIROCLEAN TECH CO., LTD., priority 2013, published 2016).

Assay: Removal of formaldehyde from air in a sealed stainless steel box

## Potassium polytungstate [K3[PW12O40]]
Time 0 hour (initial concentration), sealed box 0.7 m×0.7 m×0.7 m
  concentration of formaldehyde in the air: 10 ppm
Time 1 hour, initial 10 ppm, sealed box
  concentration of formaldehyde in the air: 7.1 ppm
Time 2 hour, initial 10 ppm, sealed box
  concentration of formaldehyde in the air: 5.3 ppm
Time 3 hour, initial 10 ppm, sealed box
  concentration of formaldehyde in the air: 3.7 ppm
Time 4 hour, initial 10 ppm, sealed box
  concentration of formaldehyde in the air: 2.5 ppm
Time 5 hour, initial 10 ppm, sealed box
  concentration of formaldehyde in the air: 1.3 ppm
